Paper PMC8163077, “SARS-CoV-2 can recruit a heme metabolite to evade antibody immunity” (Science Advances, 2021)

Experiments:
[1] = target: full-length wild-type SARS-CoV-2 spike expressed on HEK293T cells (SARS-CoV-2, UniProt P0DTC2); assay: flow cytometry on cells; conditions: one partner purified
[2] = target: SARS-CoV-2 S1 (residues 1 to 530), wild type (SARS-CoV-2, UniProt P0DTC2); assay: ELISA; direct ELISA; […] (3 ug/ml in PBS) […]; conditions: both partners purified

B1: P008_056 human monoclonal IgG (antibody, V domains shown)
VH: EVQLVESGGGLVKPGGSLRLSCAASGFSFSSYSMNWVRQAPGKGLEWVSSISSNSNYIYYADSMKGRFTISRDNAKNSLYLQMNSLRAEDTAVYYCASNRSPYDSSNYYFDYWGQGTRVTISS
VL: AIRMTQSPSSLSASVGDRVTITCQASQDISNYLNWYQQKPGKAPKLLIYDASNLETGVPSRFSGSGSGTDFTFTISSLQPEDIATYYCQHHDSLPLTFGGGTKVEIK
notes: copies: 2 + 2
[1]
  binding result: binds
[2]
  binding result: binds
